Laboratory results as given in patent publication US20040076622A1, “Local production and/or delivery of anti-cancer agents by stromal cell precursors” (Board of Regents, The University of Texas System, priority 2002, published 2004).

System: CD34+ CML stem cells
Assay: Growth and viability of CD34 enriched CML stem cells (trypan blue)
Type: cell-based, human
Conditions: 1000 U Intron A, or coculture on induced MSC

Intron A: pharmacy grade recombinant IFN-α (Intron A, Plough Schering)
Growth and viability of CD34+ CML stem cells: equally effective at reducing growth and viability
